# Data published in US20240122867A1, “CORONAL PROTEIN-COATED NANOPARTICLES AND USES THEREOF” (UNIVERSITY OF CENTRAL FLORIDA RESEARCH FOUNDATION, INC., priority 2021, published 2024).
# B1: Serine protease inhibitor A3K (protein, UniProt P07759 22-418, looked up)
# Serine protease inhibitor A3K: FPDGTKEMDIVFHEHQDNGTQDDSLTLASVNTDFAFSLYKKLALKNPDTNIVFSPLSISAALALVSLGAKGKTMEEILEGLKFNLTETPEADIHQGFGNLLQSLSQPEDQDQINIGNAMFIEKDLQILAEFHEKTRALYQTEAFTADFQQPTEAKNLINDYVSNQTQGMIKELISELDERTLMVLVNYIYFKGKWKISFDPQDTFESEFYLDEKRSVKVPMMKMKLLTTRHFRDEELSCSVLELKYTGNASALLILPDQGRMQQVEASLQPETLRKWRKTLFPSQIEELNLPKFSIASNYRLEEDVLPEMGIKEVFTEQADLSGITETKKLSVSQVVHKAVLDVAETGTEAAAATGVIGGIRKAILPAVHFNRPFLFVIYHTSAQSILFMAKVNNPK
# B2: Selenoprotein P (protein, UniProt P70274 20-380, looked up)
# Selenoprotein P: ESQGQSSACYKAPEWYIGDQNPMLNSEGKVTVVALLQASUYLCLLQASRLEDLRIKLESQGYFNISYIVVNHQGSPSQLKHSHLKKQVSEHIAVYRQEEDGIDVWTLLNGNKDDFLIYDRCGRLVYHLGLPYSFLTFPYVEEAIKIAYCEERCGNCNLTSLEDEDFCKTVTSATANKTAEPSEAHSHHKHHNKHGQEHLGSSKPSENQQPGPSETTLPPSGLHHHHRHRGQHRQGHLESUDTTASEGLHLSLAQRKLURRGCINQLLCKLSKESEAAPSSCCCHCRHLIFEKSGSAIAUQCAENLPSLCSUQGLFAEEKVTESCQCRSPPAAUQNQPMNPMEANPNUSUDNQTRKUKUHSN
# B3: Platelet-activating factor acetylhydrolase (protein, UniProt Q60963 22-440, looked up)
# Platelet-activating factor …: FHWQDTSSFDFRPSVMFHKLQSVMSAAGSGHSKIPKGNGSYPVGCTDLMFGYGNESVFVRLYYPAQDQGRLDTVWIPNKEYFLGLSIFLGTPSIVGNILHLLYGSLTTPASWNSPLRTGEKYPLIVFSHGLGAFRTIYSAIGIGLASNGFIVATVEHRDRSASATYFFEDQVAAKVENRSWLYLRKVKQEESESVRKEQVQQRAIECSRALSAILDIEHGDPKENVLGSAFDMKQLKDAIDETKIALMGHSFGGATVLQALSEDQRFRCGVALDPWMYPVNEELYSRTLQPLLFINSAKFQTPKDIAKMKKFYQPDKERKMITIKGSVHQNFDDFTFVTGKIIGNKLTLKGEIDSRVAIDLTNKASMAFLQKHLGLQKDFDQWDPLVEGDDENLIPGSPFDAVTQVPAQQHSPGSQTQN
# B4: Corticosteroid-binding globulin (protein, UniProt Q06770 23-397, looked up)
# Corticosteroid-binding …: VTDEDSSSHRDLAPTNVDFAFNLYKRLVALNSDKNTLISPVSISMALAMLSLSTRGSTQYLENLGFNMSKMSEAEIHQGFQYLNSLLQQSDTGLEMNMGNVMFLLQNLKLKDSFLADTKHYYESEALTIPSKDWTKAGEQINNHVKNKTQGKIEHVVSDLDSSATLILINYIFLKGIWKLPFSPENTREEDFYVNETSTVKVPMMVQSGNISYFRDSAIPCQMVQMNYVGNGTTFIILPDQGQMDTVVAALNRDTIDRWGKLMIPRQMNLYIPKFSMSDTYDLQDVLADVGIKDLFTNQSDFADTTKDTPLTLTVLHKAMLQLDEGNVLPAATNGPPVHLPSESFTLKYNRPFIFLAFDKYTWSSLMMSQVMNPA
# B5: Platelet factor 4 (protein, UniProt Q9Z126 30-105, looked up)
# Platelet factor 4: VTSAGPEESDGDLSCVCVKTISSGIHLKHITSLEVIKAGRHCAVPQLIATLKNGRKICLDRQAPLYKKVIKKILES
# B6: Cluster of Alpha-amylase 1 (protein, UniProt P00687 16-511, looked up)
# Alpha-amylase 1: QYDPHTQYGRTAIVHLFEWRWVDIAKECERYLAPNGFAGVQVSPPNENIVVHSPSRPWWERYQPISYKICSRSGNEDEFRDMVNRCNNVGVRIYVDAVINHMCGVGAQAGQSSTCGSYFNPNNRDFPGVPYSGFDFNDGKCRTASGGIENYQDAAQVRDCRLSGLLDLALEKDYVRTKVADYMNHLIDIGVAGFRLDASKHMWPGDIKAILDKLHNLNTKWFSQGSRPFIFQEVIDLGGEAVSSNEYFGNGRVTEFKYGAKLGKVMRKWDGEKMSYLKNWGEGWGLMPSDRALVFVDNHDNQRGHGAGGASILTFWDARLYKMAVGFMLAHPYGFTRVMSSYYWPRNFQNGKDVNDWVGPPNNNGKTKEVSINPDSTCGNDWICEHRWRQIRNMVAFRNVVNGQPFANWWDNDSNQVAFGRGNKGFIVFNNDDWALSETLQTGLPAGTYCDVISGDKVDGNCTGIKVYVGNDGKAHFSISNSAEDPFIAIHAESKI
# modifications: protein cluster
# B7: Alpha-amylase 1 (protein, UniProt P00687 16-511, looked up)
# Alpha-amylase 1: B6 Alpha-amylase 1
# B8: Kininogen-1 (protein, UniProt O08677 21-661, looked up)
# Kininogen-1: EEAQEIDCNDEAVFQAVDFSLKQFNPGVKSGNQYMLHRVIEGTKTDGSPTFYSFKYLIKEGNCSAQSGLAWQDCDFKDAEEAATGECTATVGKRENEFFIVTQTCKIAPSKAPILKAYFPCIGCVHAISTDSPDLEPVLKHSIEHFNNNTDHSHLFTLRKVKSAHRQVVAGLNFDITYTIVQTNCSKERFPSLHGDCVALPNGDDGECRGNLFMDINNKIANFSQSCTLYSGDDLVEALPKPCPGCPRDIPVDSPELKEVLGHSIAQLNAENDHPFYYKIDTVKKATSQVVAGTKYVIEFIARETKCSKESNTELAEDCEIKHLGQSLDCNANVYMRPWENKVVPTVKCQALDMTEMARRPPGFSPFRSVTVQETKEGRTVSPPYIAREQEERDAETEQGPTHGHGWLHEKQIKANKNHRGHKHGHDHGHWSPRRHGLGHGHQKPHGLGHGHQLKLDYLRHQREDGDDHTHTVGHGHGHGHGHGHGHGHGHGHGHGHGHGHGHGKHTNKDKNSVKQTTQRTESLASSSEYSTTSTQMQGRTEGPTLTPPRAQPTVTSSGFQDSDFIEDVVATTPPYDTGAHDDLIPDIHVQPDSLSFKLISDFPEATSPKCPGRPWKPASWEDPNTETTEFSDFDLLDALS
# B9: Complement factor D (protein, UniProt P03953 26-259, looked up)
# Complement factor D: ILGGQEAAAHARPYMASVQVNGTHVCGGTLLDEQWVLSAAHCMDGVTDDDSVQVLLGAHSLSAPEPYKRWYDVQSVVPHPGSRPDSLEDDLILFKLSQNASLGPHVRPLPLQYEDKEVEPGTLCDVAGWGVVTHAGRRPDVLHQLRVSIMNRTTCNLRTYHDGVVTINMMCAESNRRDTCRGDSGSPLVCGDAVEGVVTWGSRVCGNGKKPGVYTRVSSYRMWIENITNGNMTS
# B10: 14-3-3 protein zeta/delta (protein, UniProt P63101 1-245, looked up)
# 14-3-3 protein zeta/delta: MDKNELVQKAKLAEQAERYDDMAACMKSVTEQGAELSNEERNLLSVAYKNVVGARRSSWRVVSSIEQKTEGAEKKQQMAREYREKIETELRDICNDVLSLLEKFLIPNASQPESKVFYLKMKGDYYRYLAEVAAGDDKKGIVDQSQQAYQEAFEISKKEMQPTHPIRLGLALNFSVFYYEILNSPEKACSLAKTAFDEAIAELDTLSEESYKDSTLIMQLLRDNLTLWTSDTQGDEAEAGEGGEN
# B11: Secreted phosphoprotein 24 (protein, UniProt Q8K1I3 24-203, looked up)
# Secreted phosphoprotein 24: FPVYDYDPSSLQEALSASVAKVNSQSLSPYLFRATRSSLKRVNVLDEDTLVMNLEFSVQETTCLRDSGDPSTCAFQRGYSVPTAACRSTVQMSKGQVKDVWAHCRWASSSESNSSEEMMFGDMARSHRRRNDYLLGFLSDESRSEQFRDRSLEIMRRGQPPAHRRFLNLHRRARVNSGFE
# B12: Macrophage colony-stimulating factor 1 receptor (protein, UniProt P09581 20-977, looked up)
# Macrophage colony-stimulating …: APVIEPSGPELVVEPGETVTLRCVSNGSVEWDGPISPYWTLDPESPGSTLTTRNATFKNTGTYRCTELEDPMAGSTTIHLYVKDPAHSWNLLAQEVTVVEGQEAVLPCLITDPALKDSVSLMREGGRQVLRKTVYFFSPWRGFIIRKAKVLDSNTYVCKTMVNGRESTSTGIWLKVNRVHPEPPQIKLEPSKLVRIRGEAAQIVCSATNAEVGFNVILKRGDTKLEIPLNSDFQDNYYKKVRALSLNAVDFQDAGIYSCVASNDVGTRTATMNFQVVESAYLNLTSEQSLLQEVSVGDSLILTVHADAYPSIQHYNWTYLGPFFEDQRKLEFITQRAIYRYTFKLFLNRVKASEAGQYFLMAQNKAGWNNLTFELTLRYPPEVSVTWMPVNGSDVLFCDVSGYPQPSVTWMECRGHTDRCDEAQALQVWNDTHPEVLSQKPFDKVIIQSQLPIGTLKHNMTYFCKTHNSVGNSSQYFRAVSLGQSKQLPDESLFTPVVVACMSVMSLLVLLLLLLLYKYKQKPKYQVRWKIIERYEGNSYTFIDPTQLPYNEKWEFPRNNLQFGKTLGAGAFGKVVEATAFGLGKEDAVLKVAVKMLKSTAHADEKEALMSELKIMSHLGQHENIVNLLGACTHGGPVLVITEYCCYGDLLNFLRRKAEAMLGPSLSPGQDSEGDSSYKNIHLEKKYVRRDSGFSSQGVDTYVEMRPVSTSSSDSFFKQDLDKEASRPLELWDLLHFSSQVAQGMAFLASKNCIHRDVAARNVLLTSGHVAKIGDFGLARDIMNDSNYVVKGNARLPVKWMAPESIFDCVYTVQSDVWSYGILLWEIFSLGLNPYPGILVNNKFYKLVKDGYQMAQPVFAPKNIYSIMQSCWDLEPTRRPTFQQICFLLQEQARLERRDQDYANLPSSGGSSGSDSGGGSSGGSSSEPEEESSSEHLACCEPGDIAQPLLQPNNYQFC
# Test system: coronal proteins on NPs
# Set-up: species or system mouse
# Details: HBPE-NPs incubated 1 h with IAV day 5 (V5) mouse sera, 20:1 NP:sera, centrifuged and washed
row,Molecule,V5 Sera_Nanoparticles Quantitative Value (Normalized Total Spectra)
1,B1,56.572
2,B2,2.1758
3,B3,2.1758
4,B4,2.1758
5,B5,2.1758
6,B6,2.1758
7,B7,2.1758
8,B8,56.572
9,B9,2.1758
10,B10,2.1758
11,B11,2.1758
12,B12,2.1758

# Same assay, conditions: IAV day 5 (V5) mouse sera alone, no NPs (sera-only control)
row,Molecule,V5 Sera Alone (Control) Quantitative Value (Normalized Total Spectra)
1,B1,53.663
2,B2,2.7757
3,B3,7.4018
4,B4,1.8505
5,B5,2.7757
6,B6,0.9252
7,B7,0.9252
8,B8,44.411
9,B9,2.7757
10,B10,2.7757
11,B11,1.8505
12,B12,1.8505
